In article PMC9040744 (mBio, 2022):

Legend:
[1] = molecular target: JUNV GP1 (Junín virus GP1 glycoprotein, residues 87 to 232) (Junín virus (JUNV), strain XJ13 …, UniProt C1K9J9); assay: ELISA; settings: both partners purified
[2] = molecular target: MACV GP1 (Machupo virus GP1 glycoprotein, residues 87 to 257) (Machupo virus (MACV)., UniProt Q6PXS3); assay: ELISA

B1: NAb JUN1 (full-length mouse monoclonal antibody) (antibody, V domains shown)
VH: LVQSVETGGGLVRPGNSLKLSCVTSGFTFSNYQMHWLRQPPGKRLEWIAVITVKSDNYGANYVESVKGRFAISRDDSKSSVYLEMNRLREEDTATYFCSRSGIYDGYYAYAMDYWGQGTSVTVSS
VL: SVVMTQSQKFMSTSVGDRVSITCKASQIVGTSVAWYQQKAGQSPKLLIYWASTRHTGVPDRFTAGGSGTDFTLTITNVQSEDLADYFCQQYATYPLTFGSGTKLELK
notes: also called JUN1 IgG; MAb JUN1; source: HEK293F, cotransfected heavy and light chain plasmids, purified (protein G); copies: 2 + 2
binding result [1]: binds
binding result [2]: no binding (tested: 10 μg/mL)

B2: NAb MAC1 (full-length mouse monoclonal antibody) (antibody, V domains shown)
VH: QVQLQQSGAELVKPGASVKISCKASGYAFGSHWMNWVKQRPGKGLEWIGQIYPGDGDTNYNGKFKGKATLTADKSSSTAYMQFSSLTSEDSAVYFCARDDYGTRYYFDYWGQGTTLTVSS
VL: DIQMTQTTSSLSASLGDRVSISCRASQDINNYLNWYQQKPDGTVKLLIHYTSRLRSGVPSRFSGSGFGTDYSLTITNLEQEDIATYFCQQGKTLPLTFGAGTKLEIK
notes: also called MAb MAC1; source: HEK293F, cotransfected heavy and light chain plasmids, purified (protein G); copies: 2 + 2
binding result [1]: no binding (tested: 10 μg/mL)
binding result [2]: binds

B3: JUNV GP1-specific NAb OD01 (antibody, V domains shown)
VH: EVQLQQSGTVLARPGASVKMSCKASGYTFTSYWMHWIKQRPGQGLEWIGAIYPGDSDTKYNQKFKGKAKLTAVTSTSTAYMELSSLTNEDSAVYYCTRRNTLTGDYFDYWGQGTTLTVSS
VL: DIVLTQSPASLAVSLGQRATISCRASESVDDYGISFMNWFQQKPGQPPKLLIYTASSQGSGVPARFSGSGSGTDFSLNIHPMEEDDTAMYFCQQSKEVPYTFGGGTKLEIK
binding result [1]: binds
binding result [2]: no binding (tested: 10 μg/mL)
